The target of the assay is MeV F (S262R) (Measles virus, UniProt Q786F3, S262R). The note with it: 1 uM compound or peptide, 37° C., 60'.

SMILES strings stand for the structures.

On to `CC[C@H](C)[C@H](NC(=O)[C@H](C)NC(=O)[C@H](CC(N)=O)NC(=O)CNC(=O)[C@H](CC(C)C)NC(=O)[C@H](CC(N)=O)NC(=O)[C@@H](NC(=O)CNC(=O)[C@@H](NC(=O)[C@H](CC(=O)O)NC(=O)[C@H](CC(C)C)NC(=O)[C@H](CCCNC(=N)N)NC(=O)[C@H](CCC(=O)O)NC(=O)[C@H](CC(C)C)NC(=O)[C@H](CO)NC(=O)[C@@H](NC(=O)[C@@H]1CCCN1C(=O)[C@@H]1CCCN1C(=O)CNC(=O)[C@H](CO)NC(=O)CNC(=O)[C@H](CO)NC(=O)CNC(=O)CNC(=O)[C@H](Cc1ccccc1)NC(=O)[C@@H](Cc1ccccc1)NC(=O)OCc1ccccc1)[C@@H](C)CC)C(C)C)[C@@H](C)O)C(=O)N[C@@H](C)C(=O)N[C@@H](CCCCN)C(=O)N[C@@H](CC(C)C)C(=O)N[C@@H](CCC(=O)O)C(=O)N[C@@H](CC(=O)O)C(=O)N[C@@H](C)C(=O)N[C@@H](CCCCN)C(=O)N[C@@H](CCC(=O)O)C(=O)N[C@@H](CC(C)C)C(=O)N[C@@H](CC(C)C)C(=O)N[C@@H](CCC(=O)O)C(=O)N[C@@H](CO)C(=O)N[C@@H](CO)C(=O)N[C@@H](CC(=O)O)C(=O)N[C@@H](CCC(N)=O)C(=O)N[C@H](C(=O)N[C@@H](CC(C)C)C(=O)N[C@@H](CCCNC(=N)N)C(=O)NCC(=O)N[C@@H](CO)C(=O)NCC(=O)N[C@@H](CO)C(=O)NCC(=O)N[C@@H](CSC1CC(=O)N(CCCC(=O)NCCOCCOCCOCCOCCC(=O)NCCN(CCNC(=O)CCOCCOCCOCCOCCNC(=O)CCCN2C(=O)CC(SC[C@H](NC(=O)CNC(=O)[C@H](CO)NC(=O)CNC(=O)[C@H](CO)NC(=O)CNC(=O)[C@H](CCCNC(=N)N)NC(=O)[C@H](CC(C)C)NC(=O)[C@@H](NC(=O)[C@H](CCC(N)=O)NC(=O)[C@H](CC(=O)O)NC(=O)[C@H](CO)NC(=O)[C@H](CO)NC(=O)[C@H](CCC(=O)O)NC(=O)[C@H](CC(C)C)NC(=O)[C@H](CC(C)C)NC(=O)[C@H](CCC(=O)O)NC(=O)[C@H](CCCCN)NC(=O)[C@H](C)NC(=O)[C@H](CC(=O)O)NC(=O)[C@H](CCC(=O)O)NC(=O)[C@H](CC(C)C)NC(=O)[C@H](CCCCN)NC(=O)[C@H](C)NC(=O)[C@@H](NC(=O)[C@H](C)NC(=O)[C@H](CC(N)=O)NC(=O)CNC(=O)[C@H](CC(C)C)NC(=O)[C@H](CC(N)=O)NC(=O)[C@@H](NC(=O)CNC(=O)[C@@H](NC(=O)[C@H](CC(=O)O)NC(=O)[C@H](CC(C)C)NC(=O)[C@H](CCCNC(=N)N)NC(=O)[C@H](CCC(=O)O)NC(=O)[C@H](CC(C)C)NC(=O)[C@H](CO)NC(=O)[C@@H](NC(=O)[C@@H]3CCCN3C(=O)[C@@H]3CCCN3C(=O)CNC(=O)[C@H](CO)NC(=O)CNC(=O)[C@H](CO)NC(=O)CNC(=O)CNC(=O)[C@H](Cc3ccccc3)NC(=O)[C@@H](Cc3ccccc3)NC(=O)OCc3ccccc3)[C@@H](C)CC)C(C)C)[C@@H](C)O)[C@@H](C)CC)[C@@H](C)CC)C(=O)O)C2=O)CCO[C@H]2CC[C@@]3(C)C(=CC[C@H]4[C@@H]5CC[C@H]([C@H](C)CCCC(C)C)[C@@]5(C)CC[C@@H]43)C2)C1=O)C(=O)O)[C@@H](C)CC` (single isomer, unassigned), for which the “stage at which fusion is blocked (reversibly bound, irreversibly bound or fused RBCs)” value is given as “blocks at the pre-fusion state”.

On to `CC(=O)N[C@H]1[C@H]([C@H](O)[C@H](O)CO)OC(C(=O)O)=C[C@@H]1N=C(N)N` [Zanamivir, zanamivir, reference compound], for which the “stage at which fusion is blocked (reversibly bound, irreversibly bound or fused RBCs)” value is reported as “released all the RBC”.

These data come from patent US20230014151A1, “COMBINATION ANTIVIRAL THERAPY FOR MEASLES” (The Trustees of Columbia University in the City of New York, priority 2019, published 2023).
